Tests used:
[1] = biological target: Dog TFPI-Fc (dog); assay: BLI; settings: domain or fragment
[2] = biological target: Cattle TFPI-Fc (cattle); assay: BLI; settings: domain or fragment

## TcdB2.11_(1286-1805)
[1]
  Kd: 20.9 nM
  koff: 0.00119 s⁻¹
[2]
  Kd: 310 nM
  koff: 0.024 s⁻¹
